A mixed list of measured activities; the numbers were collected in NIAID ChemDB.

All rows: tests in culture; species: Measles virus; method: cytopathic effect; endpoint: EC50

Blank or dashed fields: not listed here. ECn is the concentration giving n% inhibition of infection, replication or growth. Two numbers with a dash give a range or band. Rows are shuffled and stem from different studies.

smiles	strain or isolate	cell line	value
Nc1ccn([C@@H]2C=C(CO)[C@@H](O)[C@H]2O)c(=O)n1	SSPE Niigata-1	VERO	0.05 µg/mL
Nc1ncnc2c1ncn2[C@@H]1C=C(CO)[C@@H](O)C1	-	VERO	150 µg/mL
Nc1ncnc2c1ncn2[C@@H]1CC[C@@H](O)[C@H]1O	X-1108	CV-1	>10 µg/mL
CCCCCCCCCCCCCCCCO[C@H]1N([C@H]2C[C@H](N=[N+]=[N-])[C@@H](CO)O2)C(=O)NC(=O)[C@]1(C)Br	Sugiyama	VERO	>500 µg/mL
CCCc1cc(=O)oc2cc(OS(=O)(=O)c3ccc(C)cc3)cc(O)c12	Edmonston	CV-1	0.4 µg/mL
Nc1ncnc2c1ncn2[C@@H]1C=C[C@@H](O)[C@H]1O	Chicago	CV-1	1 µg/mL
NC(=O)CCN(CCC(N)=O)S(=O)(=O)c1cccc(Nc2nc(Nc3cccc(S(=O)(=O)N(CCC(N)=O)CCC(N)=O)c3)nc(Nc3ccc(-c4ccc(Nc5nc(Nc6cccc(S(=O)(=O)N(CCC(N)=O)CCC(N)=O)c6)nc(Nc6cccc(S(=O)(=O)N(CCC(N)=O)CCC(N)=O)c6)n5)cc4S(=O)(=O)O)c(S(=O)(=O)O)c3)n2)c1	-	VERO	175 µg/mL
Nc1ncnc2c1ncn2C[C@H](O)CO	-	VERO	4–40 µg/mL
CNc1nc(=O)c2ncn([C@@H]3O[C@H](CO)[C@@H](O)[C@H]3O)c2c(=O)[nH]1	-	CV-1	>100 µM
CCCc1cc(=O)oc2c3c(c4c(c12)OC(C)(C)[C@H](O)[C@@H]4O)O[C@H](C)[C@@H](C)[C@@H]3O	MO6	CV-1	5 µg/mL
Nc1ncnc2c1ncn2[C@@H]1C[C@H](N)[C@@H](O)[C@H]1O	Chicago	CV-1	<0.1 µg/mL
CCNc1nc(=O)c2ncn([C@@H]3O[C@H](CO)[C@@H](O)[C@H]3O)c2c(=O)[nH]1	-	CV-1	2 µM
Nc1nccc2c1ncn2[C@@H]1C[C@H](CO)[C@@H](O)[C@H]1O	-	VERO	0.7 µg/mL
CCCc1cc(=O)oc2cc(OC(=O)C(C)(C)C)c3c(c12)OC(C)(C)C=C3	BIL	CV-1	0.1 µg/mL
CCOC(=O)c1ccc(OC(=O)CCCCCN=C(N)N)cc1.COS(=O)(=O)O	Sugiyama	VERO	>150 µg/mL
Nc1ncnc2c1ncn2[C@@H]1C[C@H](CO)[C@@H](O)[C@H]1O	-	VERO	2 µg/mL
CC(C)CS[C@H]1C[C@@H](n2cnc3c(N)ncnc32)[C@H](O)[C@@H]1O	DAVIS	HEL	>100 µg/mL
Nc1ncnc2c1ncn2[C@@H]1C[C@H](O)[C@@H](O)[C@H]1O	-	CV-1	1 µg/mL
Cc1cc(NCCCCCCCCNc2cc(C)nc3cc(N(C)C)ccc23)c2ccc(N(C)C)cc2n1	Sugiyama	VERO	>500 µg/mL
Nc1ncnc2c1ncn2[C@@H]1C=C(CO)[C@@H](O)[C@@H]1O	-	VERO	300 µg/mL
COc1ncnc2c1ncn2[C@@H]1O[C@H](CO)[C@@H](O)[C@@H]1O	-	-	>100 µM
CCCc1cc(=O)oc2cc(OS(=O)(=O)c3ccc(C)cc3)cc(OS(=O)(=O)c3ccc(C)cc3)c12	Chicago-1	CV-1	1 µg/mL
Nc1ncnc2c1ncn2C[C@H](O)CO	-	VERO	40 µg/mL

2 of the rows above, restated:

smiles	strain or isolate	cell line	value
Nc1ccn([C@@H]2C=C(CO)[C@@H](O)[C@H]2O)c(=O)n1	SSPE Niigata-1	VERO	0.05 µg/mL
CCNc1nc(=O)c2ncn([C@@H]3O[C@H](CO)[C@@H](O)[C@H]3O)c2c(=O)[nH]1	-	CV-1	2 µM